Measurements published in patent US9555076B2, “Neuregulin based methods and compositions for treating cardiovascular diseases” (Zensun (Shanghai) Science & Technology, Co., Ltd., priority 2002, dated 2017).

Test system: acute myocardial injury caused by viral (Coxsackie B3) infection in mice
Test: Myocardial pathologic score, mice infected with Coxsackie B3 virus
Assay type: in vivo, BALB/C mice
Parameters: key: 0-4 score: 0 = 0%, 1 = 25%, 2 = 50%, 3 = 75%, 4 = 100% lesion area
Settings: listed as Recombinant Human Neuregulin-1 βS177-Q237 for Injection
Experimental: The survived mice were killed through dislocating the cervical spine, aseptic thoracotomy was performed and the heart extirpated, heart weight measured and put the myocardium into formaldehyde for fixation, embedded in paraffin, consecutive section made and pathologic examination performed, observed inflammatory cells infiltration of the myocardium, degeneration and necrosis. Based on the Principle of New Drug Evaluation Guideline, pathologic scoring criteria was defined as follow: • Score 0: lesion area accounting for 0%; • Score 1: lesion area accounting for 25%; • Score 2: lesion area accounting for 50%; • Score 3: lesion area accounting for 75%; • Score 4: lesion area accounting for 100%; • Scoring could be performed between score 1 and score 2 or between score 2 and score 3, e.g. when lesion area was 80% was scored as score 3.2, 7.3.3.4 Observation On Survival Of Mice

B1: rhNRG-1 β: Recombinant human neuregulin fragment of 61 amino acid (SEQ ID NO:4), 3 disulfide bonds, expressed in E. coli (protein, listed as Homo sapiens)
chain: SHLVKCAEKEKTFCVNGGECFMVKDLSNPSRYLCKCPNEFTGDRCQNYVMASFYKAEELYQ
modifications: disulfide (positions not given here)
- Pathologic score Mean ± SD (7.5 μg/kg iv qd × 5, (I)): 1.5
- Pathologic score Mean ± SD (15 μg/kg iv qd × 5, (I)): 0.7
- Pathologic score Mean ± SD (30 μg/kg iv qd × 5, (I)): 0.56
